Anti-infective test results gathered from many reports (values: NIAID ChemDB through PubChem).

Common to all: host cell toxicity; cell line: MT-4; read-out: CC50

Neighbouring rows are from separate reports. CCn: concentration that lowers growth or viability of the cells by n%.

CC1(C)C2CCC3C(C(=O)C=C4C5C[C@@](C)(C(=O)O)CC[C@]5(C)CC[C@]43C)[C@@]2(C)CC[C@@H]1O[C@@H]1O[C@H](C(=O)O)[C@@H](O[C@@H]2O[C@H](C(=O)O)[C@@H](O)[C@H](O)[C@H]2O)[C@H](O)[C@H]1O ; value: 132 µg/mL
O=C1/C(=C\c2ccc(O)cc2)N(CCc2cccs2)C(=S)N1CCc1cccs1 ; method: MTT / turbidity ; value: 13.25 µg/mL
CC1(C)C2CC[C@@]3(C)C4CC[C@@]5(C)CC[C@](C)(C(=O)O)C[C@H]5C4=CC(=O)C3[C@@]2(C)CC[C@@H]1O[C@@H]1O[C@H](C(=O)O)[C@@H](O[C@@H]2O[C@H](C(=O)O)[C@@H](O)[C@H](O)[C@H]2O)[C@H](O)[C@H]1O ; value: 1960 µg/mL
CCc1c(Cc2ccccc2)nc(OC)[nH]c1=O ; value: 323 µM
S=C(NCCc1ccco1)Nc1nccs1 ; value: 89 µM
CCCCCc1nc2n(n1)C(c1ccc(OC)cc1)CC(=O)N2 ; method: visual reading ; value: >100 µg/mL
CC(C)c1c(Cc2ccccc2)n(CC(N)=O)c(=O)[nH]c1=O ; value: >100 µM
O=C1CC(c2ccccc2)n2nc(C3CCCCC3)nc2N1 ; method: visual reading ; value: ≥100 µg/mL
Nc1c(S(=O)(=O)O)cc2cc(S(=O)(=O)O)cc(O)c2c1O ; value: 46 µM
CC(C)c1c(Cl)nc(Nc2ccc(C#N)cc2)nc1Oc1ccc2ccccc2c1Br ; method: MTT ; value: 30.58 µM
C/C=C(\C)C(=O)O[C@H]1[C@H](OC(=O)CC)[C@@]23C(CC1(C)C)[C@]1(CCC4[C@@]5(C)CC[C@H](O[C@@H]6O[C@H](CO)[C@@H](O)[C@H](O[C@@H]7O[C@H](CO)[C@H](O)[C@H](O)[C@H]7O[C@@H]7O[C@@H](C)[C@H](O)[C@@H](O)[C@H]7O)[C@H]6O[C@@H]6O[C@H](CO)[C@H](O)[C@H](O)[C@H]6O)C(C)(C)C5CC[C@@]4(C)[C@]1(C)C[C@H]2OC(C)=O)O[C@@H]3O ; method: MTT ; value: <150 µg/mL
CCc1c(Cc2ccccc2)nc(OC(C)C)[nH]c1=O ; value: 193 µM
COc1ccc(-c2ccc(N=Nc3c(N)nc(=O)n(C)c3N3CCCCC3)cc2)cc1OC ; method: MTT ; value: 18.15 µM
CCCOc1nc(Cc2ccccc2)cc(=O)[nH]1 ; value: 515 µM
CN(C)CCN1C(=O)C2C3C=CC(C3=C(c3ccccc3)c3ccccc3)C2C1=O ; method: MTT ; value: 26 µM
N#Cc1ccc(Nc2nccc(Oc3cc4ccc(Br)cc4cc3Br)n2)cc1 ; method: MTT ; value: >50.39 µM
CCCOc1nc(Cc2ccccc2)c(C)c(=O)[nH]1 ; value: 244 µM
CC(C)c1c(Cc2ccccc2)n(CCCCC(N)=O)c(=O)[nH]c1=O ; value: >100 µM
C/C=C(\C)C(=O)O[C@H]1[C@H](OC(=O)/C(C)=C/C)[C@@]23C(CC1(C)C)[C@]1(CCC4[C@@]5(C)CC[C@H](O[C@@H]6O[C@H](CO)[C@@H](O)[C@H](O[C@@H]7O[C@H](CO)[C@H](O)[C@H](O)[C@H]7O[C@@H]7O[C@@H](C)[C@H](O)[C@@H](O)[C@H]7O)[C@H]6O[C@@H]6O[C@H](CO)[C@H](O)[C@H](O)[C@H]6O)C(C)(C)C5CC[C@@]4(C)[C@]1(C)C[C@H]2O)O[C@@H]3O ; method: MTT ; value: <15 µg/mL
Cn1c(N2CCOCC2)c(N=Nc2ccc(-c3ccc(F)cc3)cc2)c(N)nc1=O ; method: MTT ; value: 88.71 µM
CCOC(=O)CCCn1c(Cc2ccccc2)c(C(C)C)c(=O)[nH]c1=O ; value: >65 µM
Oc1ccccc1CCNC(=S)Nc1nccs1 ; value: 100 µM
Cn1c2ccccc2c(=O)c2c(O)cccc21 ; value: 15 µg/mL
Cn1c(-c2ccc(F)c(F)c2)cc(N)nc1=O ; method: MTT ; value: 16.01 µM
CCCOc1nc(Cc2ccccc2)c(CC)c(=O)[nH]1 ; value: 216 µM
CCCCCc1nc2n(n1)C(c1ccc([N+](=O)[O-])cc1)CC(=O)N2 ; method: visual reading ; value: >100 µg/mL
O=C(CCCCCCCCCCC(=O)Nc1cc(S(=O)(=O)O)c2cccc(S(=O)(=O)O)c2c1)Nc1cc(S(=O)(=O)O)c2cccc(S(=O)(=O)O)c2c1 ; value: 383 µM
COC(=O)Cn1c(Cc2ccccc2)c(C(C)C)c(=O)[nH]c1=O ; value: >100 µM
C/C=C(\C)C(=O)O[C@H]1[C@H](OC(=O)CCC)[C@@]23C(CC1(C)C)[C@]1(CCC4[C@@]5(C)CC[C@H](O[C@@H]6O[C@H](CO)[C@@H](O)[C@H](O[C@@H]7O[C@H](CO)[C@H](O)[C@H](O)[C@H]7O[C@@H]7O[C@@H](C)[C@H](O)[C@@H](O)[C@H]7O)[C@H]6O[C@@H]6O[C@H](CO)[C@H](O)[C@H](O)[C@H]6O)C(C)(C)C5CC[C@@]4(C)[C@]1(C)C[C@H]2O)O[C@@H]3O ; method: MTT ; value: <15 µg/mL
Fc1cccc(F)c1CCNC(=S)Nc1ccc(Br)cn1 ; value: 67 µM
O=C1/C(=C\c2ccc(C3=CC=C3)cc2)N(CCc2cccs2)C(=S)N1CCc1cccs1 ; method: MTT ; value: 58.03 µg/mL
CCNc1c(N=Nc2ccc(-c3ccc(OC)c(OC)c3)cc2)c(N)nc(=O)n1C ; method: MTT ; value: 23.13 µM
O=C1/C(=C\c2cccc([N+](=O)[O-])c2)N(CCc2cccs2)C(=S)N1CCc1cccs1 ; method: MTT ; value: 100 µg/mL
O=c1cc(Cc2ccccc2)nc(OCCCCO)[nH]1 ; value: >1000 µM
CC(=O)Oc1cc(S(=O)(=O)O)cc2cc(S(=O)(=O)O)cc(OC(C)=O)c12 ; value: >500 µM
CCOC(=O)CCCCn1c(Cc2ccccc2)c(C(C)C)c(=O)[nH]c1=O ; value: >100 µM
Cc1c(Cc2ccccc2)[nH]c(=O)[nH]c1=O ; value: >1000 µM
CNc1nc(Nc2ccc(C#N)cc2)nc(Oc2ccc3ccccc3c2)c1C ; method: MTT ; value: 178 µM
CCN(CC)c1c(N=Nc2ccc(Cl)cc2)c(N)nc(=O)n1C ; method: MTT ; value: 100 µM
O=C1NC(=O)C2C1[C@@H]1C=C[C@H]2C1=C(c1ccccc1)c1ccccc1 ; method: MTT ; value: 51 µM
COc1nc(Cc2ccccc2)c(C)c(=O)[nH]1 ; value: 517 µM
C/C=C(\C)C(=O)O[C@H]1[C@H](OC(=O)CCC)[C@@]23C(CC1(C)C)[C@]1(CCC4[C@@]5(C)CC[C@H](O[C@@H]6O[C@H](CO)[C@@H](O)[C@H](O[C@@H]7O[C@H](CO)[C@H](O)[C@H](O)[C@H]7O[C@@H]7O[C@@H](C)[C@H](O)[C@@H](O)[C@H]7O)[C@H]6O[C@@H]6O[C@H](CO)[C@H](O)[C@H](O)[C@H]6O)C(C)(C)C5CC[C@@]4(C)[C@]1(C)C[C@H]2OC(C)=O)O[C@@H]3O ; method: MTT ; value: <150 µg/mL
O=C1/C(=C\c2cccc(Oc3ccc(-c4ccccc4)cc3)c2)N(CCc2cccs2)C(=S)N1CCc1cccs1 ; method: MTT / turbidity ; value: 81.95 µg/mL
CCCCCCNc1c(N=Nc2ccc(-c3ccc(F)cc3)cc2)c(N)nc(=O)n1C ; method: MTT ; value: 11.66 µM
CCc1c(NC)nc(Nc2ccc(C#N)cc2)nc1Oc1ccc2cc(C#N)ccc2c1Br ; method: MTT ; value: 28.16 µM
C=CCNc1c(N=Nc2ccc(-c3ccc(F)cc3)cc2)c(N)nc(=O)n1C ; method: MTT ; value: 10.42 µM
CNc1nc(Nc2ccc(C#N)cc2)nc(Oc2ccc3ccccc3c2Br)c1C(C)C ; method: MTT ; value: 64.66 µM
CCOc1cccc(F)c1CCNC(=S)Nc1nccs1 ; value: 37 µM
Cc1cn([C@H]2C[C@H](N=[N+]=[N-])[C@@H](CO)O2)c(=O)[nH]c1=O ; method: MTT ; value: >25 µM